Experimental findings from article PMC10696099 are described below.

The subject of the data set is CCn1c(=NN=c2sc3cc(S(=O)(=O)O)ccc3n2CC)sc2cc(S(=O)(=O)O)ccc21. Nature of the data set: purified protein. Conditions: 100 mM sodium citrate pH 4.5, 37°C.

One may read the Km as the substrate concentration at which the rate is half of its maximum. For orientation: kcat means the maximal rate divided by the concentration of active sites. As usually defined, the kcat/Km is the second-order rate constant that governs catalysis at low substrate concentration.

With “CotA-laccase (Bacillus licheniformis DSM 13 = ATCC 14580)”, the Km was 79 ± 5 µM, the turnover number (kcat) came out at 15.4 s⁻¹ and the specificity constant (kcat/Km) amounted to 194000 M⁻¹ s⁻¹.
“CotA-laccase (Bacillus licheniformis DSM 13 = ATCC 14580; Q441A)”: the Michaelis constant (Km) came out at 52 ± 3 µM, the kcat worked out at 20.5 s⁻¹ and the kcat/Km came out at 392000 M⁻¹ s⁻¹.
